# Test results from PMC8428568, “Discovery of re-purposed drugs that slow SARS-CoV-2 replication in human cells” (PLoS Pathogens, 2021).
# Tests used:
# [1] = tested on: SARS-CoV-2-ΔOrf7a-NLuc virus; format: cell-based
# [2] = tested on: SARS-CoV-2-ΔOrf7a-NLuc virus; format: cell-based; remark: listed apart in the source
substance,measurement,setting,value
"IFNA2: interferon alpha 2, previously demonstrated to reduce virus replication",effect on virus replication,[1],little effect on virus replication
same,effect on replication of SARS-CoV-2-ΔOrf7a-NLuc,[2],reduce replication of SARS-CoV-2-ΔOrf7a-NLuc in a dose dependent manner
